Potency data for 2 compounds are collected here from PubChem BioAssay AID1159524 (National Center for Advancing Translational Sciences (NCATS), 2015).

This is a selection; strong and weak results do not stand in their true shares. Inconclusive results are not listed. Active and inactive are the calls of the source. Calls come from the whole dose curve; tested in HEK293T cells.
Potency is the fitted concentration of half-maximal effect.

A short description of this experiment: High Throughput Screening for Foot and Mouth Disease Virus Antivirals. Note: nearly all actives have a fitted effect of over 45% in size. The conditions noted are these: FMDV antiviral cell-based qHTS. In general terms: Quantitative high-throughput screening tests each substance at several concentrations.
Turning to `CN(C)C(=O)c1cc([N+](=O)[O-])cc2c1-c1c(cc([N+](=O)[O-])cc1[N+](=O)[O-])C2=O`, the Potency was active: 10 µM.

Consider `CCc1nc2c(n1)c1c(non1O)c1c2no[n+]1[O-]`, for which the Potency is active: 39.8 µM.
